Compound potency records, mixed from different reports. Data source: NIAID ChemDB in PubChem.

Shared fields: target-level tests; agent: HIV-1; target: Protease; measure: inhibition

Rows are shuffled and stem from different studies. Percent inhibition refers to the dose given; in toxicity tests it is the harm to the cells.

SMILES,dose,value
C#CC[C@H](NC(=O)COc1cccc2ccccc12)C(=O)N[C@@H](Cc1ccccc1)[C@H](O)C(=O)N1CSC[C@H]1C(=O)NC(C)(C)C,0.05 µM,74%
O=C(Oc1ccccc1)N1C2C3(CO)C(c4ccccc4)C4(CO)C1C1(CO)C(c5ccccc5)C2(CO)C3N(C(=O)Oc2ccccc2)C41,25 µM,17%
CC(=O)N[C@@H](CSC(=O)[C@]1([C@@H](O)CC(C)C)NC(=O)[C@H](C)[C@@H]1O)C(=O)O,100 µM,0%
CC(C)C(CC(=O)N[C@@H](Cc1ccccc1)[C@H](O)C(=O)N1CSC[C@H]1C(=O)NC(C)(C)C)C(=O)O,5 µM,18.4%
CCCO[C@H]1[C@H](OCc2ccccc2)[C@@H](O)[C@H](Oc2ccccc2)O[C@@H]1CNC(=O)C(NC(C)=O)C(C)C,100 µM,20%
CC(C)C[C@H](NC(=O)[C@@H]1CCCN1C(=O)CCCCCCCCCCCCCCC(=O)N[C@@H](CC(N)=O)C(=O)N[C@@H](Cc1ccccc1)C(=O)O)C(=O)N[C@@H](Cc1ccccc1)C(N)=O,5.5 µM,50%
CCOC(=O)c1cn(CC(O)CNc2cccc(C)c2)cc1-c1ccccc1,200 µM,29%
CCc1c(C)c2c(c(C)c1C1=NC(=O)C(c3cc(-c4c(C)c5c(c(C)c4CC)[C@](C)(O)C[C@@H]5C)[nH]c3O)=C1)[C@H](C)C[C@]2(C)O,10 µM,0%
CCCNC(=O)N(Cc1ccccc1)CC(O)CN(Cc1ccccc1)C(=O)NCCC,10 µM,38%
CCOC(=O)c1cccn1CC(O)CNc1ccccc1,200 µM,17%
CC(C)(C)OC(=O)N[C@H]1CC(=O)NCCNC(=O)C[C@@H](C(N)=O)NC(=O)[C@H](Cc2ccccc2)NCC(O)[C@H](Cc2ccccc2)NC1=O,10 µM,18%
CC(C)(C)NC(=O)N(Cc1cccc(O)c1)CC(O)CN(Cc1cccc(O)c1)C(=O)NC(C)(C)C,10 µM,67%
COc1ccc(C2C3(CO)C4N(C(C)=O)C5C2(CO)C2N(C(C)=O)C3C4(CO)C(c3ccc(OC)cc3)C52CO)cc1,25 µM,7%
CCOC(=O)c1cn(CC(O)CNc2cccc(N)c2)cc1-c1ccccc1,200 µM,22%
COc1ccc(C2C3(CO)C4N(C(=O)OC(C)(C)C)C5C2(CO)C2N(C(=O)OC(C)(C)C)C3C4(CO)C(c3ccc(OC)cc3)C52CO)cc1,50 µM,32%
CC(O)[C@H](NC(=O)CCCCCCCCCCCCCCC(=O)N[C@@H](CC(N)=O)C(=O)N[C@@H](Cc1ccccc1)C(=O)O)C(=O)N1CCC[C@H]1C(=O)N[C@@H](Cc1ccccc1)C(N)=O,5.5 µM,15%
CC(C)(C)NC(=O)[C@@H]1CSCN1C(=O)[C@@H](O)[C@H](Cc1ccccc1)NC(=O)CCCC(=O)O,5 µM,81.9%
CC(C)C[C@H](NC(=O)[C@H](CCC(N)=O)NC(=O)CCCCCCCCCCCCCCC(=O)N[C@@H](CC(N)=O)C(=O)N[C@@H](Cc1ccccc1)C(=O)O)C(=O)N[C@@H](Cc1ccccc1)C(N)=O,5.5 µM,30%
CC(C)(C)NC(=O)[C@@H]1CCCN1C(=O)[C@@H](O)[C@H](Cc1ccccc1)NC(=O)[C@H](CC(=O)NN)NC(=O)OCc1cccc2ccccc12,0.05 µM,72.8%
CC(=O)NC(C(=O)NC[C@H]1O[C@@H](Oc2ccccc2)[C@H](O)[C@@H](OCc2ccccc2)[C@@H]1O)C(C)C,100 µM,14%
CCOC(=O)c1cn(CC(O)CNc2ccc(C)cc2)cc1-c1ccccc1,200 µM,27%
CC(C)(C)NC(=O)[C@@H]1CCCN1C(=O)[C@@H](O)[C@H](Cc1ccccc1)NC(=O)[C@H](CS(N)(=O)=O)NC(=O)OC(C)(C)C,5 µM,7.1%
CC(C)C[C@H](NC(=O)[C@@H](NC(=O)CCCCCCCCCCCCCCC(=O)N[C@@H](CCC(N)=O)C(=O)N[C@@H](Cc1ccccc1)C(=O)O)C(C)O)C(=O)N[C@@H](Cc1ccccc1)C(N)=O,5.5 µM,35%
CC(C)[C@H](N)C(=O)N[C@H](C(=O)N[C@@H](Cc1ccccc1)[C@H](O)C(=O)N[C@H](Cc1ccccc1)C(=O)N[C@@H](C(=O)N[C@@H](C(N)=O)C(C)C)C(C)C)C(C)C,1000 µM,47.1%
CC(C)(C)NC(=O)NCC(O)CNC(=O)NC(C)(C)C,10 µM,8%
COc1ccc(C2C3(CO)C4N(C(=O)Cc5ccccc5)C5C2(CO)C2N(C(=O)Cc6ccccc6)C3C4(CO)C(c3ccc(OC)cc3)C52CO)cc1,50 µM,18%
CCOC(=O)c1cn(CC(O)CNc2ccccc2C)cc1-c1ccccc1,200 µM,32%
COC(=O)N1C2C3(CO)C(c4ccccc4)C4(CO)C1C1(CO)C(c5ccccc5)C2(CO)C3N(C(=O)OC)C41,50 µM,9%
CC(C)(C)NC(=O)[C@H]1N(C(=O)[C@@H](O)[C@H](Cc2ccccc2)NC(=O)[C@H](CC(N)=O)NC(=O)OCc2ccccc2)CCC1(C)C,0.05 µM,73.2%
O=C(N[C@@H](CO)c1ccccc1)[C@@H](CSC[C@@H](Cc1ccccc1)C(=O)N[C@@H](CO)c1ccccc1)Cc1ccccc1,10 µM,51%
CC(C)C[C@H](NC(=O)[C@@H]1C[C@@H](O)CN1C(=O)CCCCCCCCCCCCCCC(=O)N[C@@H](CC(N)=O)C(=O)N[C@@H](Cc1ccccc1)C(=O)O)C(=O)N[C@@H](Cc1ccccc1)C(N)=O,5.5 µM,20%
CC(C)(C)NC(=O)[C@@H]1CSCN1C(=O)[C@@H](O)[C@H](Cc1ccccc1)NC(=O)CCC(=O)O,5 µM,73.7%
CCOC(=O)c1ccn(CC(O)CNc2ccccc2)c1,200 µM,21%
O=C(NCc1ccccc1)N(Cc1ccccc1)CC(O)CN(Cc1ccccc1)C(=O)NCc1ccccc1,10 µM,19%
N=S(=O)(C[C@@H](Cc1ccccc1)C(=O)NC(CO)c1ccccc1)C[C@@H](Cc1ccccc1)C(=O)N[C@H](CO)c1ccccc1,10 µM,87%
CC[C@H](C)[C@H](NC(=O)CN(O)C(=O)[C@H](Cc1ccccc1)NC(=O)OC(C)(C)C)C(=O)N[C@@H](Cc1ccccc1)C(=O)O,10 µM,25%
CC[C@@H](C)[C@H](NC(=O)[C@@H]1CCCN1C(=O)[C@@H](O)[C@H](CC1CCCCC1)NC(=O)[C@H](CC(N)=O)NC(=O)[C@@H]1Cc2ccccc2CN1)C(=O)N[C@H](C(N)=O)C(C)C,5 µM,96.6%
COC(=O)[C@H](NC(=O)N(Cc1ccccc1)CC(O)CN(Cc1ccccc1)C(=O)N[C@@H](C(=O)OC)C(C)C)C(C)C,10 µM,16%
CC[C@@H](C)[C@H](NC(=O)[C@@H]1CCCN1C(=O)[C@@H](O)[C@H](CC1CCCCC1)NC(=O)[C@H](CC(N)=O)NC(=O)COc1cccc2ccccc12)C(=O)N[C@H](C(N)=O)C(C)C,5 µM,99.5%
CC(C)(C)OC(=O)N[C@H]1CCCCNC(=O)CC(=O)NCCCC[C@@H](C(N)=O)NC(=O)[C@H](Cc2ccccc2)NC(=O)CC(Cc2ccccc2)NC1=O,10 µM,2%
CC(C)C[C@H](NC(=O)[C@H](CC(N)=O)NC(=O)CCCCCCCCCCCCCCC(=O)N[C@@H](CC(N)=O)C(=O)N[C@@H](Cc1ccccc1)C(=O)O)C(=O)N[C@@H](Cc1ccccc1)C(N)=O,5.5 µM,30%
Cc1cn([C@@H]2C[C@@H](N=[N+]=[N-])[C@H](COC(=O)CCCC(=O)N[C@@H](Cc3ccccc3)[C@H](O)C(=O)N3CSC[C@H]3C(=O)NC(C)(C)C)O2)c(=O)[nH]c1=O,5 µM,12%
O=C(NC(CO)c1ccccc1)[C@H](Cc1ccccc1)CS(=O)C[C@@H](Cc1ccccc1)C(=O)N[C@H](CO)c1ccccc1,10 µM,47%
Cc1cn([C@@H]2C[C@@H](N=[N+]=[N-])[C@H](COC(=O)C(C)C(C)C(=O)N[C@@H](Cc3ccccc3)[C@H](O)C(=O)N3CSC[C@H]3C(=O)NC(C)(C)C)O2)c(=O)[nH]c1=O,5 µM,26%
O=C(Nc1ccccc1)N(Cc1ccccc1)CC(O)CN(Cc1ccccc1)C(=O)Nc1ccccc1,10 µM,16%
CC[C@H](C)[C@H](NC(=O)[C@H](Cc1ccccc1)NC[C@H](Cc1ccccc1)NC(=O)OC(C)(C)C)C(=O)N[C@@H](Cc1ccccc1)C(=O)OC,10 µM,22%
CC(C)(C)NC(=O)[C@H]1N(C(=O)[C@@H](O)[C@H](Cc2ccccc2)NC(=O)CC(C)(C)C(=O)O)CSC1(C)C,0.05 µM,76.3%
CC(C)C[C@H](NC(=O)[C@H](CC(=O)O)NC(=O)CCCCCCCCCCCCCCC(=O)N[C@@H](CC(N)=O)C(=O)N[C@@H](Cc1ccccc1)C(=O)O)C(=O)N[C@@H](Cc1ccccc1)C(N)=O,5.5 µM,20%
CC(C)[C@H](NC(=O)[C@H](CCCN=C(N)N)NC(=O)N[C@@H](Cc1ccccc1)C(=O)O)C(=O)N[C@H](C=O)Cc1ccccc1,10 µM,~95%
CC(C)(C)NC(=O)N(Cc1cccc(O)c1O)CC(O)CN(Cc1cccc(O)c1O)C(=O)NC(C)(C)C,10 µM,67%
CC(C)CCN(C[C@@H](O)[C@H](Cc1ccccc1)NC(=O)OCc1ccccc1)S(=O)(=O)C(F)(F)F,10 µM,76%
CC[C@H](C)[C@H](NC(=O)CN(N)C(=O)[C@H](Cc1ccccc1)NC(=O)OC(C)(C)C)C(=O)N[C@@H](Cc1ccccc1)C(=O)OC,10 µM,3%

Repeating the first 4 entries:

SMILES	dose	value
C#CC[C@H](NC(=O)COc1cccc2ccccc12)C(=O)N[C@@H](Cc1ccccc1)[C@H](O)C(=O)N1CSC[C@H]1C(=O)NC(C)(C)C	0.05 µM	74%
O=C(Oc1ccccc1)N1C2C3(CO)C(c4ccccc4)C4(CO)C1C1(CO)C(c5ccccc5)C2(CO)C3N(C(=O)Oc2ccccc2)C41	25 µM	17%
CC(=O)N[C@@H](CSC(=O)[C@]1([C@@H](O)CC(C)C)NC(=O)[C@H](C)[C@@H]1O)C(=O)O	100 µM	0%
CC(C)C(CC(=O)N[C@@H](Cc1ccccc1)[C@H](O)C(=O)N1CSC[C@H]1C(=O)NC(C)(C)C)C(=O)O	5 µM	18.4%